Test system: clinical isolates of E. coli
Assay: Glucuronide sensitivity screen, agar plates (CPS ID 3 or Columbia agar)
Assay type: cell-based
Conditions: E. coli O157 non-toxigenic

Substance: 6-chloro-3-indolyl β-D-glucuronide
- Colour: −

Source: US9938562B2, “Naphthalene derived chromogenic enzyme substrates” (Glycosynth Limited, priority 2013, dated 2018)
